Patent US20230310474A1, “CORONAVIRUS TREATMENT COMPOSITION AND METHOD” (Cleveland State University, priority 2022, published 2023)

What was measured:
[1] = molecular target: Nucleocapsid (N) protein, sialidase-treated (desialylated) (SARS-CoV-2) (UniProt P0DTC9); test: EMSA; settings: protein in a lysate after overexpression
[2] = molecular target: Nucleocapsid (N) protein, sialylated (SARS-CoV-2) (UniProt P0DTC9); test: EMSA; settings: protein in a lysate after overexpression
[3] = single-stranded DNA, variant of 32-mer stem-loop II motif ssRNA (32m)

“CGAGGCCACGCGGAGTACGATCGAGGGTACAG [32-mer ssDNA mimic of stem-loop II motif]”: binds [1, 3]; binds [2, 3].
“CGAGGCCACGCGGAGUACGAUCGAGGGUACAG [32-mer stem-loop II motif ssRNA (32m)]”: binds [1]; binds [2].

Results from cells or extracts need not show a direct contact.
